pIC50: −log10 of the molar value.
Target: SARS-CoV-2 M^pro (Severe acute respiratory syndrome coronavirus 2, UniProt P0DTD1)
Type: biochemical
Conditions: read-out: SARS-CoV-2 M^pro IC50; FRET assay, 50 nM M^pro, 10 min preincubation

Substance: Myricitrin
- pIC50: < 5.00
